Results deposited as PubChem BioAssay AID624099 (ICCB-Longwood, 2012)
The deposit covers about 21,000 reagents; this is a part drawn at random. 497 of all reagents (2.4%) count as active. 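Higher z means weaker E2 silencing; only reporter increases were scored, and knock-downs that hurt cell survival may mask genuine repressor factors.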 Reagent sequences are not shown.

Purpose: 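Host factors E2 relies on to silence an HPV18 LCR reporter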 (primary screen)
Cells: human C33A cervical carcinoma cells (HPV-negative) stably expressing BPV1 E2 and an HPV18 LCR luciferase reporter
Reagents: siRNA pool against human genes, 40 nM
Timing: 72 h
Measurement: 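Per-well luciferase luminescence, z-scored on each plate against the plate mean and SD with control wells left out, then averaged across three replicate plates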
Scale: mean z-score and z-score: higher = stronger reporter signal, weaker E2 silencing
Rule for the call: 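Mean z ≥ 2 together with z ≥ 2 in two or more of the three replicates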

gene,PubChem SID,mean z-score,"z-score, replicate A","z-score, replicate B","z-score, replicate C",outcome
KRT17,SID134315101,-0.49,-0.27,-0.49,-0.69,inactive
STIL,SID134323487,0.66,0.42,0.72,0.84,inactive
SYT1,SID134323789,0.71,0.93,0.52,0.68,inactive
CLEC3A,SID134323736,-0.13,-0.16,-0.19,-0.05,inactive
SNTN,SID134325716,0.34,0.56,0.45,0.02,inactive
STK24,SID56478905,-1.3,-1.49,-1.34,-1.06,inactive
TCTN1,SID134322509,0.56,0.72,0.54,0.42,inactive
MYB,SID134310156,-0.6,-0.43,-0.5,-0.88,inactive
FABP2,SID134313292,0.25,0.27,0.14,0.35,inactive
LOC389192 (retired record),SID134327344,0.01,-0.31,0.01,0.33,inactive
RBM17,SID134310777,0.53,0.12,0.78,0.69,inactive
NOP2,SID134323823,-0.55,-0.64,-0.56,-0.45,inactive
SAMD4B,SID134325804,0.66,0.85,0.71,0.43,inactive
DISP1,SID134317814,0.69,0.61,0.64,0.83,inactive
RPS6KA4,SID56478837,0.15,-0.01,0.51,-0.05,inactive
SLC25A4,SID134312531,-0.48,-0.54,-0.64,-0.27,inactive
IFNA16,SID134323429,-0.68,-0.68,-0.72,-0.64,inactive
OOSP2,SID134322317,1.52,1.41,1.67,1.49,inactive
LOC392790 (retired record),SID134327901,0.32,0.1,-0.05,0.92,inactive
SLC22A13,SID134312493,-0.15,-0.07,0.09,-0.47,inactive
ZAN,SID134316115,0.54,0.06,0.95,0.61,inactive
TMX3,SID134324571,0.38,0.37,0.35,0.42,inactive
HMG20A,SID134319497,-0.76,-0.73,-1.08,-0.48,inactive
RORB,SID134309892,0.81,0.69,0.94,0.81,inactive
ADH1B,SID134313038,-0.38,-0.5,-0.41,-0.22,inactive
MAPK7,SID56478666,1.35,1.74,1.01,1.29,inactive
GRIK3,SID134311610,1.32,1.33,1.3,1.32,inactive
LOC401016 (retired record),SID134327256,0.74,1.04,0.63,0.54,inactive
ASTN1,SID134325200,0.51,0.56,0.38,0.59,inactive
ZNF232,SID134324934,-0.04,-0.17,0.18,-0.13,inactive
GCNT4,SID134324772,-1.2,-0.8,-1.31,-1.48,inactive
SHROOM4,SID134326139,-0.52,-0.6,-0.49,-0.48,inactive
FLVCR1,SID134324265,-0.99,-0.75,-1.17,-1.03,inactive
HBZ,SID134316353,0.38,0.43,0.2,0.49,inactive
PATE2,SID134330001,0.04,0.52,-0.56,0.15,inactive
TRAF3IP2,SID134310388,0.27,0.47,0.14,0.19,inactive
AP3B1,SID134321466,0.29,0.5,0.28,0.09,inactive
OR7A5,SID134318023,-0.15,-0.12,-0.07,-0.26,inactive
RAPGEF2,SID134314459,-1.7,-1.71,-1.84,-1.53,inactive
ACTL9,SID134321880,-0.44,-0.59,-0.4,-0.34,inactive
LOC401623 (retired record),SID134329190,-0.08,-0.36,0.27,-0.17,inactive
OR1E1,SID134313875,-1.95,-2.14,-1.99,-1.72,inactive
ALG11,SID134329760,0.35,0,0.7,0.35,inactive
SPSB4,SID134319330,0.88,1.26,0.82,0.55,inactive
HOOK2,SID134324114,0.67,0.65,-0.38,1.74,inactive
BCL3,SID134310123,-0.62,-0.76,-0.54,-0.57,inactive
STX12,SID134322119,0.62,0.54,0.69,0.63,inactive
AP3B2,SID134325024,-0.48,-0.65,-0.52,-0.27,inactive
PDIA6,SID134323773,-0.08,0.18,-0.24,-0.18,inactive
PYROXD1,SID134313058,-1.18,-1.08,-1.18,-1.27,inactive
ENTPD1,SID134319986,1.34,1.46,1.25,1.32,inactive
TAF4,SID134312023,-0.68,-0.72,-0.6,-0.72,inactive
P3H2,SID134310352,0.56,0.5,0.26,0.92,inactive
LOC400388 (retired record),SID134328552,-0.13,-0.05,-0.24,-0.11,inactive
NR2F2,SID134309873,0.65,0.82,0.48,0.65,inactive
RASGRF2,SID56479299,-0.68,-1.13,-0.32,-0.61,inactive
HLA-DQA1,SID134317460,0.16,0.06,0.09,0.33,inactive
HES5,SID134312731,-0.98,-1.14,-0.34,-1.45,inactive
PSG11,SID134323470,0.87,0.79,0.78,1.05,inactive
GOLGA7B,SID134328169,-1.59,-1.32,-1.65,-1.8,inactive
FAM171A1,SID134326536,-2.08,-2.22,-1.95,-2.06,inactive
SPINK5,SID134316606,-0.03,-0.19,0.14,-0.04,inactive
LOC339771 (retired record),SID134325562,-0.07,-0.18,-0.02,-0.01,inactive
RXFP1,SID134311088,0.32,0.58,0.1,0.28,inactive
C20orf203,SID134322682,-0.17,-0.43,0.08,-0.16,inactive
MSANTD4,SID134326568,-0.29,-0.54,-0.38,0.05,inactive
LOC400161 (retired record),SID134328463,-0.81,-0.66,-0.75,-1.01,inactive
SPEF1,SID134321015,0.93,0.8,0.93,1.05,inactive
QARS1,SID134313752,0.12,-0.01,0.15,0.23,inactive
AREL1,SID134312305,-0.56,-0.51,-0.54,-0.63,inactive
SOX12,SID134321220,-1.06,-0.97,-1.22,-0.99,inactive
DPY19L3-DT,SID134328891,0.03,-0.22,0.26,0.05,inactive
RETREG1,SID134320907,-0.08,-0.2,0.12,-0.15,inactive
